A mixed list of measured activities; the numbers were collected in NIAID ChemDB.

All rows: tests in culture; species: Mycobacterium avium complex; measure: MIC

Rows are shuffled and stem from different studies.

SMILES | strain or isolate | result
Cc1cc(C)nc(NS(=O)(=O)c2ccc(N)cc2)n1 | LPR | 32 µg/mL
CC[C@H]1OC(=O)[C@H](C)[C@@H](O[C@H]2C[C@@](C)(OC)[C@@H](OC(C)=O)[C@H](C)O2)[C@H](C)[C@@H](O[C@@H]2O[C@H](C)C[C@H](N(C)C)[C@H]2O)C(C)(O)C[C@@H](C)/C(=N\OCCN(C)c2ccccc2)[C@H](C)[C@@H](O)[C@]1(C)O | 20096 (clarithromycin-resistant) | 12.5 µg/mL
COc1cc(NCc2cnc3nc(N)nc(N)c3c2C)cc(C(F)(F)F)c1 | NJ211 | ≤0.13 µg/mL
CCCCCCO/N=C1\[C@H](C)CC(C)(O)[C@H](O[C@@H]2O[C@H](C)C[C@H](N(C)C)[C@H]2O)[C@@H](C)[C@H](OC2C[C@@](C)(OC)[C@@H](O)[C@H](C)O2)[C@@H](C)C(=O)O[C@H](CC)[C@@](C)(O)[C@H](O)[C@H]1C | 20096 (clarithromycin-resistant) | 6.25 µg/mL
CC1(C)S[C@@H]2[C@H](NC(=O)[C@H](C(=O)[O-])c3ccsc3)C(=O)N2[C@H]1C(=O)[O-].[Na+].[Na+] | CIPT 140310003 (rough) | 35 µg/mL
O=C(N1CCC(CN=c2cc3n(-c4ccc(Cl)cc4)c4ccccc4nc-3cc2Nc2ccc(Cl)cc2)CC1)N1CC1 | 100 | ≥16 µg/mL
Cc1c(CNc2ccc3ncccc3c2)cnc2nc(N)nc(N)c12 | NJ3404 | ≤0.13 µg/mL
CCCCCCCCCCCCC(=O)O[C@H]1[C@H](C)OC(O[C@H]2[C@H](C)[C@@H](O[C@@H]3O[C@H](C)C[C@H](N(C)C)[C@H]3O)C(C)(O)C[C@@H](C)/C(=N\OCCCOc3ccccc3)[C@H](C)[C@@H](O)[C@](C)(O)[C@@H](CC)OC(=O)[C@@H]2C)C[C@@]1(C)OC | 20092 (clarithromycin-resistant) | >50 µg/mL
CC1(C)N=C(N)N=C(N)N1OCCCOc1cc(Cl)c(Cl)cc1Cl | DW1 | 1 µg/mL
CCCCCCCCO[C@@H]1O[C@H]([C@@H](COCc2ccccc2)O[C@H]2O[C@H](CO)[C@@H](O)[C@@H]2O)[C@H](OCc2ccccc2)[C@H]1OCc1ccccc1 | NJ211 | >128 µg/mL
C[C@@H]1CN(c2c(F)c(N)c3c(=O)c(C(=O)O)cn(C4CC4)c3c2F)C[C@H](C)N1 | MO-1 | 0.5 µg/mL
NC[C@H]1O[C@H](O[C@H]2[C@H](O)[C@@H](O[C@H]3O[C@H](CO)[C@@H](O)[C@H](N)[C@H]3O)[C@H](N)C[C@@H]2N)[C@H](O)[C@@H](O)[C@@H]1O | CIPT 140310003 (rough) | 5 µg/mL
CO[C@H]1/C=C/O[C@@]2(C)Oc3c(C)c(O)c4c(=O)c(c5oc6cc(N7CCN(CC(C)C)CC7)cc(=O)c6nc5c4c3=C2O)NC(=O)/C(C)=C\C=C\[C@H](C)[C@H](O)[C@@H](C)[C@@H](O)[C@@H](C)[C@H](OC(C)=O)[C@@H]1C | N-444 | 0.025 µg/mL
CO[C@H]1/C=C/O[C@@]2(C)Oc3c(C)c(O)c4c(O)c(c5c(c4c3C2=O)NC2(CCN(CC(C)C)CC2)N=5)=NC(=O)/C(C)=C\C=C\[C@H](C)[C@H](O)[C@@H](C)[C@@H](O)[C@@H](C)[C@H](OC(C)=O)[C@@H]1C | CIPT 140310003 (smooth) | 0.1 µg/mL
CCCCCCCCO[C@@H]1O[C@H]([C@@H](COC)O[C@H]2O[C@H](COC(=O)c3ccccc3)[C@@H](OC(=O)c3ccccc3)[C@@H]2OC(=O)c2ccccc2)[C@H](OC)[C@H]1OC | NJ211 | >128 µg/mL
Cc1c(CNc2cccc3ccccc23)cnc2nc(N)nc(N)c12 | NJ3404 | ≤0.13 µg/mL
CC(C)N=C(N)/N=C(\N)NOCCCOc1cc(Cl)c(Cl)cc1Cl | 1102 | 32 µg/mL
O=C(NCCCl)N1CCC(CN=c2cc3n(-c4ccc(Cl)cc4)c4ccccc4nc-3cc2Nc2ccc(Cl)cc2)CC1 | 109 | 8 µg/mL
Cc1c(CNc2cccc3ncccc23)cnc2nc(N)nc(N)c12 | NJ211 | ≤0.13 µg/mL
C[C@@H](O)[C@H]1C(=O)N2C(C(=O)O)=C(SCCN=CN)C[C@H]12 | CIPT 140310005 | 10 µg/mL
COc1cc(OC)cc(N(C)Cc2cnc3nc(N)nc(N)c3c2C)c1 | NJ3404 | ≤0.13 µg/mL
CC[C@H]1OC(=O)[C@H](C)[C@@H](O[C@H]2C[C@@](C)(OC)[C@@H](O)[C@H](C)O2)[C@H](C)[C@@H](O[C@@H]2O[C@H](C)C[C@H](N(C)C)[C@H]2O)[C@](C)(OC)C[C@@H](C)C(=O)[C@H](C)[C@@H](O)[C@]1(C)O | MO-1 | 8 µg/mL
CC[C@H]1OC(=O)[C@H](C)[C@@H](O[C@H]2C[C@@](C)(OC)[C@@H](OC(C)=O)[C@H](C)O2)[C@H](C)[C@@H](O[C@@H]2O[C@H](C)C[C@H](N(C)C)[C@H]2O)C(C)(O)C[C@@H](C)/C(=N\OCCCCCc2ccccc2)[C@H](C)[C@@H](O)[C@]1(C)O | 20096 (clarithromycin-resistant) | 3.13 µg/mL
CC(C)N=C(N)N(OCCCOc1cc(Cl)c(Cl)cc1Cl)C(=N)N | FAR | 32 µg/mL
COc1cccc2c1nc1cccc(OC)c1[n+]2[O-] | 109 | ≥16 µg/mL
CC[C@H]1OC(=O)[C@H](C)[C@@H](O[C@H]2C[C@@](C)(OC)[C@@H](O)[C@H](C)O2)[C@H](C)[C@@H](O[C@@H]2O[C@H](C)C[C@H](N(C)C)[C@H]2O)[C@](C)(O)C[C@@H](C)CN(C)[C@H](C)[C@@H](O)[C@]1(C)O | K | 8 µg/mL

2 of the rows above, restated:

SMILES	strain or isolate	result
CC1(C)N=C(N)N=C(N)N1OCCCOc1cc(Cl)c(Cl)cc1Cl	DW1	1 µg/mL
O=C(N1CCC(CN=c2cc3n(-c4ccc(Cl)cc4)c4ccccc4nc-3cc2Nc2ccc(Cl)cc2)CC1)N1CC1	100	≥16 µg/mL